Anti-infective test results gathered from many reports (values: NIAID ChemDB through PubChem).

All rows: growth or infection tests; agent: HIV-1; cell line: HeLa; measure: EC50

Two numbers with a dash give a range or band. Blank or dashed fields: not listed here. Rows are shuffled and stem from different studies. ECn: concentration that inhibits the pathogen or its effect by n%.

structure	strain	method	result
C[C@@H]1CN(C(=O)c2ccc(Br)o2)CCN1C(=O)C(=O)c1c[nH]c2c(-c3ccc(C(=O)O)cc3)nccc12		luciferase	<1 µM
Cc1cc(C)c(Oc2nc(Nc3ccc(C#N)cc3)nc3c(C)csc23)c(C)c1	L1001-K103N	luciferase	0.01–0.1 µM
N#CC(C(=O)c1ccc2ccccc2n1)N1CCN(C(=O)c2ccccc2)CC1		luciferase / reporter gene	<1 µM
CNCCN1CCN(c2cccc3c(C(=O)C(=O)N4CCN(C(=O)c5ccccc5)C[C@H]4C)c[nH]c23)C1=O		luciferase / reporter gene	<1 µM
COc1cnc(-n2ccnn2)c2[nH]cc(C(=O)C(=O)N3CCC(=C(c4ccccc4)c4cccc(CO)c4)CC3)c12		luciferase	<1 µM
Cc1cc(C#N)cc(C)c1Oc1nc(Nc2ccc(C#N)cc2)nc2ccsc12		luciferase	<0.01 µM
COc1cnc(-c2cnccn2)c2[nH]cc(C(=O)C(=O)N3CCC(=C(C(N)=O)c4ccccc4)CC3)c12		luciferase	<1 µM
N#CC1=CC2Nc3ccccc3C2N(c2ccc([N+](=O)[O-])cc2)C1=O	F-93BR20	GFP / fluorescence	0.034 µM
C=C(C(=O)N1CCN(C(=O)c2ccccc2)C[C@H]1C)c1ccc2cc(OC)ccc2c1		luciferase / reporter gene	<1 µM
CCNC(=O)c1ncn(-c2ncc(OC)c3c(C(=O)C(=O)N4CCN(C(=O)c5ccccc5)CC4)c[nH]c23)n1		luciferase	≤0.0002 µM
COc1ncc(OC)c2c(C(=O)C(=O)N3CCC(=C(c4ccccc4)c4nnco4)CC3)c[nH]c12		luciferase	<1 µM
COc1ccc2cc(CC(=O)N3CCN(C(=O)c4ccccc4)C[C@H]3C)ccc2c1		luciferase / reporter gene	<1 µM
CCOC(=O)c1cncc(C(=C2CCN(C(=O)C(=O)c3c[nH]c4c(-n5cnc(C)n5)ncc(OC)c34)CC2)c2ccccc2)c1		luciferase	<1 µM
O=C(C(=O)N1CCN(C(=O)c2ccccc2)CC1)c1ccc2cnccc2n1		luciferase / reporter gene	<1 µM
CC(=O)c1c(C)nc(-c2ccccc2)nc1NC(=O)c1ccccc1	B-HXB2	GFP / fluorescence	0.24 µM
C[C@@H]1CN(C(=O)c2ccccc2)CCN1C(=O)C(=O)c1ccc2ccccc2n1		luciferase / reporter gene	<1 µM
COc1cnc(-n2cc(C(F)(F)F)cn2)c2[nH]cc(C(=O)C(=O)N3CCN(C(=O)c4ccccc4)CC3)c12		luciferase	<1 µM
C[C@@H]1CN(C(=O)c2ccccc2)CCN1C(=O)C(=O)c1c[nH]c2c(NC(=O)C(O)C(O)C(N)=O)cccc12		luciferase / reporter gene	<1 µM
COc1cccc2nc(C(=O)C(=O)N3CCN(C(=O)c4ccccc4)CC3C)ccc12		luciferase / reporter gene	<1 µM
Cc1cc(C#N)cc(C)c1Oc1nc(Nc2ccc(C#N)cc2)nc2sccc12	Y-188L	luciferase	<0.01 µM
COc1ccccc1C(=C1CCN(C(=O)C(=O)c2c[nH]c3c(OC)ncc(OC)c23)CC1)c1ccccc1		luciferase	<1 µM
CC1CN(C(=O)c2ccccc2)CCN1C(=O)C(=O)c1ccc2cc(F)ccc2n1		luciferase / reporter gene	<1 µM
N#CC(=C1CCN(C(=O)C(=O)c2c[nH]c3c(NC(=O)Nc4ccc(S(=O)(=O)O)cc4)cccc23)CC1)c1ccccc1		luciferase / reporter gene	<1 µM
COc1cnc(-n2ccc(C)n2)c2[nH]cc(C(=O)C(=O)N3CCC(=C(c4ccccc4)c4csc(C)n4)CC3)c12		luciferase	<1 µM
O=C(Cc1cccc2ccccc12)N1CCN(C(=O)c2ccccc2)CC1		luciferase / reporter gene	1–5 µM
O=C(O)c1cc(-c2ncc(F)c3c(C(=O)C(=O)N4CCN(C(=O)c5ccccc5)CC4)c[nH]c23)n[nH]1		luciferase	<1 µM
CC(=O)Nc1ccc(F)c2c(C(=O)C(=O)N3CC/C(=C(\C#N)c4ccccc4)CC3C)c[nH]c12		luciferase / reporter gene	<1 µM
N#CC(=C1CCN(C(=O)C(=O)c2c[nH]c3c(-c4nccs4)ccnc23)CC1)c1ccccc1		luciferase	<1 µM
Cc1cc(C#N)cc(C)c1Nc1nc(Nc2ccc(C#N)cc2)nc2c(C)csc12	Y-188L	luciferase	<0.01 µM
COc1cnc(-c2cccc(C(=O)O)c2)c2[nH]cc(C(=O)C(=O)N3CCC(=C(C#N)c4ccccc4)CC3)c12		luciferase	<1 µM
CC1CN(C(=O)c2ccccc2)CCN1C(C#N)C(=N)c1ccc2c(O)cccc2n1		luciferase / reporter gene	<1 µM
COc1cnc(-n2cncn2)c2[nH]cc(C(=O)C(=O)N3CCC(=C(C#N)c4ccccc4)CC3)c12		luciferase	<1 µM
COc1cnc(-n2ccc(CC(O)C(C)C)n2)c2[nH]cc(C(=O)C(=O)N3CCN(C(=O)c4ccccc4)CC3)c12		luciferase	<1 µM

4 of the rows above, restated:

structure,strain,method,result
N#CC(C(=O)c1ccc2ccccc2n1)N1CCN(C(=O)c2ccccc2)CC1,,luciferase / reporter gene,<1 µM
COc1cccc2nc(C(=O)C(=O)N3CCN(C(=O)c4ccccc4)CC3C)ccc12,,luciferase / reporter gene,<1 µM
Cc1cc(C#N)cc(C)c1Oc1nc(Nc2ccc(C#N)cc2)nc2sccc12,Y-188L,luciferase,<0.01 µM
Cc1cc(C#N)cc(C)c1Oc1nc(Nc2ccc(C#N)cc2)nc2ccsc12,,luciferase,<0.01 µM